Test system: Human erythrocytes
Test: hemotoxicity determination (hemolytic activity)
Type: cell-based
Conditions: for WS EH50/IC50 (selectivity coefficient): EH50 divided by antifungal IC50; for WE WS(z)/WS(AmB) (effectivity factor): selectivity coefficient of derivative relative to native antibiotic
Experimental: The hemotoxicity determination was carried out by the serial dilutions method, according to the procedure described earlier (Slisz, M., et al., E., J Antibiot 57: 669-678 (2004). Human erythrocytes were suspended in the solution of saline to obtain a cell density of suspension 2×10^7/ml. Suitable amounts of diluted solutions of compounds were added to the cell suspension in tubes and were incubated at 37° C. for 30 minutes and then centrifuged (1700×g, 10 min, 4° C.). The concentration of hemoglobin in supernatant after centrifugation of erythrocytes suspension were determined by measuring the absorbance at wavelength λ=540 nm (A540). The maximum level of hemolysis was obtained after incubation of cells suspension in the presence of 0.1% Tritone X-100 (control sample). […] From these graphs, the EH50 values were read which are the interpolated concentrations of compound, for which the A540 value is exactly 50% of the A540 value measured for the control sample.

Structure (SMILES) | WS EH50/IC50 (selectivity coefficient) | WE WS(z)/WS(AmB) (effectivity factor)
Cc1cc(C)c(N2C(=O)CC(N[C@@H]3[C@H](O)[C@H](O[C@H]4/C=C/C=C/C=C/C=C/C=C/C=C/C=C/[C@H](C)[C@@H](O)[C@@H](C)[C@H](C)OC(=O)C[C@H](O)C[C@H](O)CC[C@@H](O)[C@H](O)C[C@H](O)C[C@]5(O)C[C@H](O)[C@@H](C(=O)O)[C@H](C4)O5)O[C@H](C)[C@H]3O)C2=O)c(C)c1 (stereo partly drawn) [Compound A1, N—[N-(2,4,6-trimethylphenyl)succinimidyl]amphotericin B] | >102.04 | >5.74
C[C@@H]1[C@H](O)[C@@H](C)/C=C/C=C/C=C/C=C/C=C/C=C/C=C/[C@H](O[C@@H]2O[C@H](C)[C@@H](O)[C@H](NC3CC(=O)N(Cc4ccccc4)C3=O)[C@@H]2O)C[C@@H]2O[C@](O)(C[C@@H](O)C[C@@H](O)[C@H](O)CC[C@@H](O)C[C@@H](O)CC(=O)O[C@H]1C)C[C@H](O)[C@H]2C(=O)O (stereo partly drawn) [Compound A2, N—(N-benzylsuccinimidyl)amphotericin B] | >45.04 | >2.54
C[C@@H]1[C@H](O)[C@@H](C)/C=C/C=C/C=C/C=C/C=C/C=C/C=C/[C@H](O[C@@H]2O[C@H](C)[C@@H](O)[C@H](NC3CC(=O)N(c4ccc(Br)cc4)C3=O)[C@@H]2O)C[C@@H]2O[C@](O)(C[C@@H](O)C[C@@H](O)[C@H](O)CC[C@@H](O)C[C@@H](O)CC(=O)O[C@H]1C)C[C@H](O)[C@H]2C(=O)O (stereo partly drawn) [Compound A3, N—[N-(4-bromophenyl)succinimidyl]amphotericin B] | >35.09 | >1.97
C[C@@H]1[C@H](O)[C@@H](C)/C=C/C=C/C=C/C=C/C=C/C=C/C=C/[C@H](O[C@@H]2O[C@H](C)[C@@H](O)[C@H](NC3CC(=O)N(c4ccccc4C(C)(C)C)C3=O)[C@@H]2O)C[C@@H]2O[C@](O)(C[C@@H](O)C[C@@H](O)[C@H](O)CC[C@@H](O)C[C@@H](O)CC(=O)O[C@H]1C)C[C@H](O)[C@H]2C(=O)O (stereo partly drawn) [Compound A4, N—[N-(2-tert-butylophenyl)succinimidyl]amphotericin B] | >32.15 | >1.81
C[C@@H]1[C@H](O)[C@@H](C)/C=C/C=C/C=C/C=C/C=C/C=C/C=C/[C@H](O[C@@H]2O[C@H](C)[C@@H](O)[C@H](NC3CC(=O)N(c4ccc([N+](=O)[O-])cc4)C3=O)[C@@H]2O)C[C@@H]2O[C@](O)(C[C@@H](O)C[C@@H](O)[C@H](O)CC[C@@H](O)C[C@@H](O)CC(=O)O[C@H]1C)C[C@H](O)[C@H]2C(=O)O (stereo partly drawn) [Compound A5, N—[N-(4-nitrophenyl)succinimidyl]amphotericin B] | >51.55 | >2.90
C[C@@H]1[C@H](O)[C@@H](C)/C=C/C=C/C=C/C=C/C=C/C=C/C=C/[C@H](O[C@@H]2O[C@H](C)[C@@H](O)[C@H](NC3CC(=O)N(CC(C)(C)CN(C)C)C3=O)[C@@H]2O)C[C@@H]2O[C@](O)(C[C@@H](O)C[C@@H](O)[C@H](O)CC[C@@H](O)C[C@@H](O)CC(=O)O[C@H]1C)C[C@H](O)[C@H]2C(=O)O (stereo partly drawn) [Compound A7, N-{N-[3-(N,N-dimethylamino)-2,2-dimethylpropyl]succinimidyl}amphotericin B] | >142.86 | >8.04
C[C@@H]1[C@H](O)[C@@H](C)/C=C/C=C/C=C/C=C/C=C/C=C/C=C/[C@H](O[C@@H]2O[C@H](C)[C@@H](O)[C@H](NC3CC(=O)N(CCO)C3=O)[C@@H]2O)C[C@@H]2O[C@](O)(C[C@@H](O)C[C@@H](O)[C@H](O)CC[C@@H](O)C[C@@H](O)CC(=O)O[C@H]1C)C[C@H](O)[C@H]2C(=O)O (stereo partly drawn) [Compound A8, N—[N-(2-hydroxyethyl)succinimidyl]amphotericin B] | >73.53 | >4.14
C[C@@H]1[C@H](O)[C@@H](C)/C=C/C=C/C=C/C=C/C=C/C=C/C=C/[C@H](O[C@@H]2O[C@H](C)[C@@H](O)[C@H](NCc3ccc(C(C)(C)C)cc3)[C@@H]2O)C[C@@H]2O[C@](O)(C[C@@H](O)C[C@@H](O)[C@H](O)CC[C@@H](O)C[C@@H](O)CC(=O)O[C@H]1C)C[C@H](O)[C@H]2C(=O)O [Compound A21, N-(4-tert-butylbenzyl)amphotericin B] | >63.29 | >3.56
C[C@@H]1[C@H](O)[C@@H](C)/C=C/C=C/C=C/C=C/C=C/C=C/C=C/[C@H](O[C@@H]2O[C@H](C)[C@@H](O)[C@H](NC(=S)Nc3ccccc3)[C@@H]2O)C[C@@H]2O[C@](O)(C[C@@H](O)C[C@@H](O)[C@H](O)CC[C@@H](O)C[C@@H](O)CC(=O)O[C@H]1C)C[C@H](O)[C@H]2C(=O)O [Compound A23, N-[(3-phenyl)-thioureidyl]amphotericin B] | >39.37 | >2.22
C[C@@H]1[C@H](O)[C@@H](C)/C=C/C=C/C=C/C=C/C=C/C=C/C=C/[C@H](O[C@@H]2O[C@H](C)[C@@H](O)[C@H](NC(=S)NCCN3CCOCC3)[C@@H]2O)C[C@@H]2O[C@](O)(C[C@@H](O)C[C@@H](O)[C@H](O)CC[C@@H](O)C[C@@H](O)CC(=O)O[C@H]1C)C[C@H](O)[C@H]2C(=O)O [Compound A24, N-{[3-(2-morpholin-1-yl)ethyl]thioureidyl}amphotericin B] | >88.49 | >4.98
CCN(CC)CCNC(=S)N[C@@H]1[C@H](O)[C@H](O[C@H]2/C=C/C=C/C=C/C=C/C=C/C=C/C=C/[C@H](C)[C@@H](O)[C@@H](C)[C@H](C)OC(=O)C[C@H](O)C[C@H](O)CC[C@@H](O)[C@H](O)C[C@H](O)C[C@]3(O)C[C@H](O)[C@@H](C(=O)O)[C@H](C2)O3)O[C@H](C)[C@H]1O [Compound A25, N-{3-[2-(N,N-diethylamino)ethyl]thioureidyl}amphotericin B] | >117.65 | >6.62
C[C@@H]1[C@H](O)[C@@H](C)/C=C/C=C/C=C/C=C/C=C/C=C/C=C/[C@H](O[C@@H]2O[C@H](C)[C@@H](O)[C@H](NC(=S)Nc3cccnc3)[C@@H]2O)C[C@@H]2O[C@](O)(C[C@@H](O)C[C@@H](O)[C@H](O)CC[C@@H](O)C[C@@H](O)CC(=O)O[C@H]1C)C[C@H](O)[C@H]2C(=O)O [Compound A26, N-[3-(pyridin-3-yl)thioureidyl]amphotericin B] | >39.21 | >2.21
C[C@@H]1[C@H](O)[C@@H](C)/C=C/C=C/C=C/C=C/C=C/C=C/C=C/[C@H](O[C@@H]2O[C@H](C)[C@@H](O)[C@H](NC(=S)NCCN3CCCC3)[C@@H]2O)C[C@@H]2O[C@](O)(C[C@@H](O)C[C@@H](O)[C@H](O)CC[C@@H](O)C[C@@H](O)CC(=O)O[C@H]1C)C[C@H](O)[C@H]2C(=O)O [Compound A27, N-{[3-(2-pyrrolidin-1-yl)ethyl]thioureidyl}amphotericin B] | >133.33 | >7.51
C[C@@H]1[C@H](O)[C@@H](C)/C=C/C=C/C=C/C=C/C=C/C=C/C=C/[C@H](O[C@@H]2O[C@H](C)[C@@H](O)[C@H](NC(=S)NCCN(C)C)[C@@H]2O)C[C@@H]2O[C@](O)(C[C@@H](O)C[C@@H](O)[C@H](O)CC[C@@H](O)C[C@@H](O)CC(=O)O[C@H]1C)C[C@H](O)[C@H]2C(=O)O [Compound A28, N-{3-[2-(N,N-dimethylamino)ethyl]thioureidyl}amphotericin B] | 163.46 | 9.20
C[C@@H]1[C@H](O)[C@@H](C)/C=C/C=C/C=C/C=C/C=C/C=C/C=C/[C@H](O[C@@H]2O[C@H](C)[C@@H](O)[C@H](NC(=S)NCc3ccncc3)[C@@H]2O)C[C@@H]2O[C@](O)(C[C@@H](O)C[C@@H](O)[C@H](O)CC[C@@H](O)C[C@@H](O)CC(=O)O[C@H]1C)C[C@H](O)[C@H]2C(=O)O [Compound A29, N-{[3-(pyridin-4-yl)methyl]thioureidyl}amphotericin B] | >39.06 | >2.20
C[C@@H]1[C@H](O)[C@@H](C)/C=C/C=C/C=C/C=C/C=C/C=C/C=C/[C@H](O[C@@H]2O[C@H](C)[C@@H](O)[C@H](NC(=O)[C@@H](N)Cc3ccc(I)cc3)[C@@H]2O)C[C@@H]2O[C@](O)(C[C@@H](O)C[C@@H](O)[C@H](O)CC[C@@H](O)C[C@@H](O)CC(=O)O[C@H]1C)C[C@H](O)[C@H]2C(=O)O [Compound A31, N-L-p-iodophenylalanylamphotericin B] | >39.68 | >2.23
C[C@@H]1[C@H](O)[C@@H](C)/C=C/C=C/C=C/C=C/C=C/C=C/C=C/[C@H](O[C@@H]2O[C@H](C)[C@@H](O)[C@H](NC(=O)[C@H](N)CC(=O)OC(C)(C)C)[C@@H]2O)C[C@@H]2O[C@](O)(C[C@@H](O)C[C@@H](O)[C@H](O)CC[C@@H](O)C[C@@H](O)CC(=O)O[C@H]1C)C[C@H](O)[C@H]2C(=O)O [Compound A35, N-D-(O^β-tert-butyl)asparagylamphotericin B] | >71.42 | >4.02
C[C@@H]1[C@H](O)[C@@H](C)/C=C/C=C/C=C/C=C/C=C/C=C/C=C/[C@H](O[C@@H]2O[C@H](C)[C@@H](O)[C@H](NC(=O)[C@@H](N)CSC(C)(C)C)[C@@H]2O)C[C@@H]2O[C@](O)(C[C@@H](O)C[C@@H](O)[C@H](O)CC[C@@H](O)C[C@@H](O)CC(=O)O[C@H]1C)C[C@H](O)[C@H]2C(=O)O [Compound A37, N-L-(S-tert-butyl)cystylamphotericin B] | >78.12 | >4.40
